The chains behind the UniProt entries cited, without tags or fusion partners. Residues count along the entry.
UniProt P27958, 1027-1657 limits assumed: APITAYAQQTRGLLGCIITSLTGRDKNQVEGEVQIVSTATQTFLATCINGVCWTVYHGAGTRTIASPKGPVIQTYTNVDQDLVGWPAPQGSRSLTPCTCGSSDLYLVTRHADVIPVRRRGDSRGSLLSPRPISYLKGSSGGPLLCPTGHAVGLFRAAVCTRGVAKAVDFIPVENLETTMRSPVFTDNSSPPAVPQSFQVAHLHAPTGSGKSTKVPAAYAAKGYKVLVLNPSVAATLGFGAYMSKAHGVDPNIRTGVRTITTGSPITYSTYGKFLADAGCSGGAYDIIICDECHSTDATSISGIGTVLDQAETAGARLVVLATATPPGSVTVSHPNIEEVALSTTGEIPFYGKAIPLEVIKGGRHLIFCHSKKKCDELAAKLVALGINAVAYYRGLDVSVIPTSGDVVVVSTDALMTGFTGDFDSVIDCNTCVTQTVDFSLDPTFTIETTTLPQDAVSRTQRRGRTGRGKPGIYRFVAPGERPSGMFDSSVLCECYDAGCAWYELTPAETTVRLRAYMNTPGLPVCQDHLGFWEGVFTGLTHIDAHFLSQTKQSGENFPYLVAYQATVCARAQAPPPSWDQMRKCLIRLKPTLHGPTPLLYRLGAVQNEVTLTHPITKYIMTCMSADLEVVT
UniProt P27958, 1658-1711 partner limits assumed: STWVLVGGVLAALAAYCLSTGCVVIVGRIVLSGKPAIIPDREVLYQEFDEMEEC

In patent publication US7592316B2, “Peptides as NS3-serine protease inhibitors of hepatitis C virus” (Schering Corporation, priority 2000, dated 2009):

Target: HCV NS3/NS4A protease (strain 1a) (Hepatitis C virus genotype 1a, UniProt P27958)
Conditions: Table 6; HCV NS3/NS4A protease, 30° C., pH 6.5

| Structure (SMILES) | Ki [nM] |
| --- | --- |
| CN(C)C(=O)[C@@H](NC(=O)CNC(=O)C(=O)C(CCC(F)(F)F)NC(=O)[C@@H]1[C@H]2CC(C)(C)O[C@H]2CN1C(=O)[C@@H](NC(=O)OC(C)(C)C)C1CCCCC1)c1ccccc1 (stereo partly drawn) | 1 to 100 |
| NC(=O)C(=O)C(CC1CCC1)NC(=O)[C@@H]1[C@@H]2[C@H](CN1C(=O)[C@@H](NC(=O)OC1CC3CCC1C3)C1CCCCC1)C2(Cl)Cl (stereo partly drawn) | 1 to 100 |
| CN(C)C(=O)[C@@H](NC(=O)CNC(=O)C(=O)C(CC1CCCC1)NC(=O)C1[C@H]2CC(C)(C)O[C@H]2CN1C(=O)[C@@H](NC(=O)OC(C)(C)C)C(C)(C)C)c1ccccc1 (stereo partly drawn) | 1 to 100 |

Same assay, conditions: read-out: Ki* Range; HCV protease continuous assay results, Table 1

| Structure (SMILES) | Ki [nM] |
| --- | --- |
| CCCC(NC(=O)[C@@H]1C[C@@H](c2ccccc2)CN1C(=O)[C@@H](NC(=O)OC(C)(C)C)C1CCCCC1)C(=O)C(=O)NCC(=O)N[C@H](C(=O)O)c1ccccc1 (stereo partly drawn) | > 1000 |

Same assay, conditions: read-out: Ki* Range; Table 4; HCV NS3/NS4A protease, spectrophotometric assay, 30° C., pH 6.5

| Structure (SMILES) | Ki [nM] |
| --- | --- |
| CCCC(NC(=O)[C@@H]1[C@@H]2[C@H](CN1C(=O)[C@@H](NC(=O)OCC(C)C)C1CCCCC1)[C@@H]2C(=O)OCC)C(=O)C(=O)NCC(=O)NC(C(=O)N(C)C)c1ccccc1 (stereo partly drawn) | 1 to 100 |
| CC(C)COC(=O)N[C@H](C(=O)N1CC(C)(C)C[C@H]1C(=O)NC(CC(C)C)C(=O)C(=O)NCC(=O)NC(C(=O)N(C)C)c1ccccc1)C(C)(C)C (stereo partly drawn) | 1 to 100 |
| CCCC(NC(=O)[C@@H]1CCC(C)N1C(=O)[C@@H](NC(=O)OCC(C)C)C1CCCCC1)C(=O)C(=O)NCC(=O)NC(C(=O)O)c1ccccc1 (stereo partly drawn) | 1 to 100 |
| CCCC(NC(=O)C1C[C@@H](O)CN1C(=O)[C@@H](NC(=O)OCC)C1CCCCC1)C(=O)C(=O)NCC(=O)N[C@H](C(=O)O)c1ccccc1 (stereo partly drawn) | 101 to 1000 |
| CCCC(NC(=O)C1CC2(CCCC2)CN1C(=O)[C@@H](NC(=O)OCC(C)C)C1CCCCC1)C(=O)C(=O)NCC(=O)N[C@H](C(=O)O)c1ccccc1 (stereo partly drawn) | 1 to 100 |
| CCCC(NC(=O)[C@@H]1[C@@H]2[C@H](CN1C(=O)[C@@H](NC(=O)OCC(C)C)C1CCCCC1)[C@H]2C(=O)OCC)C(=O)C(=O)NCC(=O)NC(C(=O)N(C)C)c1ccccc1 (stereo partly drawn) | 1 to 100 |

Same assay, conditions: read-out: Ki* Range; Table 5; HCV NS3/NS4A protease, 30° C., pH 6.5

| Structure (SMILES) | Ki [nM] |
| --- | --- |
| C=CCCC(NC(=O)[C@@H]1C2C(CN1C(=O)[C@@H](NC(=O)NC13CC4CC(CC(C4)C1)C3)C1Cc3ccccc3C1)C2(C)C)C(=O)C(=O)NCC=C (stereo partly drawn) | 101 to 1000 |
| C=CCCC(NC(=O)[C@@H]1C2C(CN1C(=O)[C@@H](NC(=O)NCC13CC4CC(CC(C4)C1)C3)C1Cc3ccccc3C1)C2(C)C)C(=O)C(=O)NCC=C (stereo partly drawn) | 101 to 1000 |
| C=CCCC(NC(=O)[C@@H]1C2C(CN1C(=O)[C@@H](NC(=O)OC13CC4CC(CC(C4)C1)C3)C1Cc3ccccc3C1)C2(C)C)C(=O)C(=O)NCC=C (stereo partly drawn) | 101 to 1000 |

Same assay, conditions: read-out: Ki* Range; Table 5; HCV NS3/NS4A protease, spectrophotometric assay, 30° C., pH 6.5

| Structure (SMILES) | Ki [nM] |
| --- | --- |
| CCCC(NC(=O)[C@@H]1CC(C)(C)CN1C(=O)C(NC(=O)OC(C)(C)C)C(C)(C)C)C(=O)C(=O)NCC(=O)NC(C)c1ccccc1 (stereo partly drawn) | > 1000 |
| C#CCNC(=O)CNC(=O)C(=O)C(CCC)NC(=O)[C@@H]1[C@@H]2[C@H](CN1C(=O)[C@@H](NC(=O)OC(C)(C)C)C(C)(C)C)C2(C)C (single isomer, unassigned) | 101 to 1000 |
| C=CCCNC(=O)C(=O)C(CC1CC1)NC(=O)[C@@H]1[C@@H]2[C@H](CN1C(=O)[C@@H](NC(=O)OC(C)(C)C)C1CCCCC1)C2(C)C (stereo partly drawn) | > 1000 |
| C=CCC(NC(=O)[C@@H]1[C@@H]2[C@H](CN1C(=O)[C@@H](NC(=O)OC(C)(C)C)C(C)(C)C)C2(C)C)C(=O)C(=O)NCC(=O)NCc1ccccn1 (stereo partly drawn) | 101 to 1000 |
| C=CCNC(=O)C(=O)C(CCC)NC(=O)[C@@H]1[C@@H]2[C@H](CN1C(=O)[C@H](CC(C)(C)C)NC(=O)OC(C)(C)C)C2(C)C (stereo partly drawn) | > 1000 |
